Results from ChEMBL document CHEMBL1150695, “The synthesis of SO-3, a conopeptide with high analgesic activity derived from Conus striatus” (2003).

Key:
Mus musculus [1] = experiment: Analgesic activity in mouse assessed as reaction time required for tail flicking at 3.2 ug/kg, intracerebrally after 3.3 hrs by light radiation method
Mus musculus [2] = experiment: Analgesic activity in mouse assessed as reaction time required for tail flicking at 2.2 ug/kg, intracerebrally after 2.5 hrs by light radiation method
Rattus norvegicus [3] = experiment: Analgesic activity in rat assessed as reaction time required for tail flicking response at 2 ug/kg, intracerebrally after 1 hr by tail-flicking reaction method
Mus musculus [4] = experiment: Analgesic activity in mouse assessed as reaction time required for tail flicking at 2.2 ug/kg, intracerebrally after 1 hr by light radiation method
Rattus norvegicus [5] = experiment: Analgesic activity in rat assessed as reaction time required for tail flicking response at 2 ug/kg, intracerebrally after 2 hrs by tail-flicking reaction method
Mus musculus [6] = experiment: Analgesic activity in mouse assessed as reaction time required to elicit jumping or hind paw licking at 0.5 ug/kg, intracerebrally after 0.5 hrs by hot plate method
Mus musculus [7] = experiment: Analgesic activity in mouse assessed as reaction time required for tail flicking at 2.7 ug/kg, intracerebrally after 1 hr by light radiation method
Mus musculus [8] = experiment: Analgesic activity in mouse assessed as reaction time required to elicit jumping or hind paw licking at 0.5 ug/kg, intracerebrally after 2.5 hrs by hot plate method
Mus musculus [9] = experiment: Analgesic activity in mouse assessed as reaction time required for tail flicking at 3.2 ug/kg, intracerebrally after 4 hrs by light radiation method
Rattus norvegicus [10] = experiment: Analgesic activity in rat assessed as reaction time required for tail flicking response at 2 ug/kg, intracerebrally after 3 hrs by tail-flicking reaction method
Rattus norvegicus [11] = experiment: Analgesic activity in rat assessed as reaction time required for tail flicking response at 1.2 ug/kg, intracerebrally after 1 hr by tail-flicking reaction method
Mus musculus [12] = experiment: Analgesic activity in mouse assessed as reaction time required to elicit jumping or hind paw licking at 3 ug/kg, intracerebrally after 4 hrs by hot plate method
Mus musculus [13] = experiment: Analgesic activity in mouse assessed as reaction time required to elicit jumping or hind paw licking at 3 ug/kg, intracerebrally after 2.5 hrs by hot plate method
Rattus norvegicus [14] = experiment: Analgesic activity in rat assessed as reaction time required for tail flicking response at 1.2 ug/kg, intracerebrally after 2 hrs by tail-flicking reaction method
Mus musculus [15] = experiment: Analgesic activity in mouse assessed as reaction time required for tail flicking at 2.2 ug/kg, intracerebrally after 3.3 hrs by light radiation method
Mus musculus [16] = experiment: Analgesic activity in mouse assessed as reaction time required for tail flicking at 2.7 ug/kg, intracerebrally after 3.3 hrs by light radiation method
Mus musculus [17] = experiment: Analgesic activity in mouse assessed as reaction time required for tail flicking at 3.2 ug/kg, intracerebrally after 2.5 hrs by light radiation method
Mus musculus [18] = experiment: Analgesic activity in mouse assessed as reaction time required for tail flicking at 2.2 ug/kg, intracerebrally after 4 hrs by light radiation method
Rattus norvegicus [19] = experiment: Analgesic activity in rat assessed as reaction time required for tail flicking response at 1.2 ug/kg, intracerebrally after 3 hrs by tail-flicking reaction method
Mus musculus [20] = experiment: Analgesic activity in mouse assessed as reaction time required to elicit jumping or hind paw licking at 1.5 ug/kg, intracerebrally after 0.5 hrs by hot plate method
Mus musculus [21] = experiment: Analgesic activity in mouse assessed as reaction time required for tail flicking at 2.7 ug/kg, intracerebrally after 2.5 hrs by light radiation method
Mus musculus [22] = experiment: Analgesic activity in mouse assessed as reaction time required to elicit jumping or hind paw licking at 1.5 ug/kg, intracerebrally after 1.5 hrs by hot plate method
Mus musculus [23] = experiment: Analgesic activity in mouse assessed as reaction time required to elicit jumping or hind paw licking at 1 ug/kg, intracerebrally after 2.5 hrs by hot plate method
Mus musculus [24] = experiment: Analgesic activity in mouse assessed as reaction time required to elicit jumping or hind paw licking at 3 ug/kg, intracerebrally after 1.5 hrs by hot plate method
Mus musculus [25] = experiment: Analgesic activity in mouse assessed as reaction time required to elicit jumping or hind paw licking at 1 ug/kg, intracerebrally after 0.5 hrs by hot plate method
Mus musculus [26] = experiment: Analgesic activity in mouse assessed as reaction time required for tail flicking at 3.2 ug/kg, intracerebrally after 1 hr by light radiation method
Rattus norvegicus [27] = experiment: Analgesic activity in rat assessed as reaction time required for tail flicking response at 1.2 ug/kg, intracerebrally after 4 hrs by tail-flicking reaction method
Mus musculus [28] = experiment: Analgesic activity in mouse assessed as reaction time required to elicit jumping or hind paw licking at 3 ug/kg, intracerebrally after 0.5 hrs by hot plate method
Mus musculus [29] = experiment: Analgesic activity in mouse assessed as reaction time required to elicit jumping or hind paw licking at 1.5 ug/kg, intracerebrally after 2.5 hrs by hot plate method
Mus musculus [30] = experiment: Analgesic activity in mouse assessed as reaction time required to elicit jumping or hind paw licking at 1.5 ug/kg, intracerebrally after 4 hrs by hot plate method
Mus musculus [31] = experiment: Analgesic activity in mouse assessed as reaction time required to elicit jumping or hind paw licking at 1 ug/kg, intracerebrally after 1.5 hrs by hot plate method
Rattus norvegicus [32] = experiment: Analgesic activity in rat assessed as reaction time required for tail flicking response at 2 ug/kg, intracerebrally after 4 hrs by tail-flicking reaction method
Mus musculus [33] = experiment: Analgesic activity in mouse assessed as reaction time required for tail flicking at 2.7 ug/kg, intracerebrally after 4 hrs by light radiation method
Mus musculus [34] = experiment: Analgesic activity in mouse assessed as reaction time required to elicit jumping or hind paw licking at 0.5 ug/kg, intracerebrally after 1.5 hrs by hot plate method
Carassius carassius [35] = experiment: Toxicity against Carassius carassius at 1 ug/gold fish, intramuscular; conditions: in vivo, im
Carassius carassius [36] = experiment: Toxicity against Carassius carassius at 8.5 ug/gold fish, intramuscular; conditions: in vivo, im
Carassius carassius [37] = experiment: Toxicity against Carassius carassius at 0.5 ug/gold fish, intramuscular; conditions: in vivo, im
Carassius carassius [38] = experiment: Toxicity against Carassius carassius at 3 ug/gold fish, intramuscular; conditions: in vivo, im

## CSCC[C@@H]1NC(=O)[C@H](CC(C)C)NC(=O)[C@H](CCCNC(=N)N)NC(=O)[C@H](CO)NC(=O)[C@@H]2CSSC[C@@H]3NC(=O)[C@H](CO)NC(=O)CNC(=O)[C@H]([C@@H](C)O)NC(=O)[C@H](CSSC[C@H](N)C(=O)N[C@@H](CCCCN)C(=O)NCC(=O)N[C@@H](CCCCN)C(=O)NCC(=O)N[C@@H](C)C(=O)N[C@@H](CCCCN)C(=O)N2)NC(=O)[C@H](CSSC[C@@H](C(=O)O)NC(=O)[C@H](CCCCN)NC(=O)CNC(=O)[C@H](CO)NC(=O)[C@H](CCCNC(=N)N)NC3=O)NC(=O)[C@H](CC(=O)O)NC(=O)[C@H](Cc2ccc(O)cc2)NC1=O [listing 1 of 2 here]
Mus musculus [1]
  Activity: 11.8 s
Mus musculus [2]
  Activity: 12 s
Rattus norvegicus [3]
  Activity: 2.5 s
Mus musculus [4]
  Activity: 14 s
Rattus norvegicus [5]
  Activity: 3 s
Mus musculus [6]
  Activity: 20 s
Mus musculus [7]
  Activity: 12.1 s
Mus musculus [8]
  Activity: 11.4 s
Mus musculus [9]
  Activity: 11.9 s
Rattus norvegicus [10]
  Activity: 3.1 s
Rattus norvegicus [11]
  Activity: 2.8 s
Mus musculus [12]
  Activity: 37 s
Mus musculus [13]
  Activity: 40.6 s
Rattus norvegicus [14]
  Activity: 3.4 s
Mus musculus [15]
  Activity: 8.6 s
Mus musculus [16]
  Activity: 12 s
Mus musculus [17]
  Activity: 12.9 s
Mus musculus [18]
  Activity: 7.7 s
Rattus norvegicus [19]
  Activity: 2.9 s
Mus musculus [20]
  Activity: 46.4 s
Mus musculus [21]
  Activity: 11.9 s
Mus musculus [22]
  Activity: 26 s
Mus musculus [23]
  Activity: 12 s
Mus musculus [24]
  Activity: 43 s
Mus musculus [25]
  Activity: 36 s
Mus musculus [26]
  Activity: 13.4 s
Rattus norvegicus [27]
  Activity: 2.8 s
Mus musculus [28]
  Activity: 55.2 s
Mus musculus [29]
  Activity: 23.2 s
Mus musculus [30]
  Activity: 19.6 s
Mus musculus [31]
  Activity: 13.8 s
Rattus norvegicus [32]
  Activity: 2.9 s
Mus musculus [33]
  Activity: 9 s
Mus musculus [34]
  Activity: 12.6 s

## CSCC[C@@H]1NC(=O)[C@H](CC(C)C)NC(=O)[C@H](CCCNC(=N)N)NC(=O)[C@H](CO)NC(=O)[C@@H]2CSSC[C@@H]3NC(=O)[C@H](CO)NC(=O)CNC(=O)[C@H]([C@@H](C)O)NC(=O)[C@H](CSSC[C@H](N)C(=O)N[C@@H](CCCCN)C(=O)NCC(=O)N[C@@H](CCCCN)C(=O)NCC(=O)N[C@@H](C)C(=O)N[C@@H](CCCCN)C(=O)N2)NC(=O)[C@H](CSSC[C@@H](C(=O)O)NC(=O)[C@H](CCCCN)NC(=O)CNC(=O)[C@H](CO)NC(=O)[C@H](CCCNC(=N)N)NC3=O)NC(=O)[C@H](CC(=O)O)NC(=O)[C@H](Cc2ccc(O)cc2)NC1=O [listing 2 of 2 here]
Carassius carassius [35]
  Activity: 80%
Carassius carassius [36]
  Activity: 100%
Carassius carassius [37]
  Activity: 60%
Carassius carassius [38]
  Activity: 100%
